Record: PubChem BioAssay AID624099 (ICCB-Longwood, 2012)

Test: 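Host factors E2 relies on to silence an HPV18 LCR reporter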 (primary screen)
Cell system: human C33A cervical carcinoma cells (HPV-negative) stably expressing BPV1 E2 and an HPV18 LCR luciferase reporter
Knock-down reagent: siRNA pool against human genes, 40 nM
Timing: 72 h
Measured: 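HPV18 LCR reporter light per well, converted to plate-wise z-scores that exclude control wells, and averaged over triplicate plates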
Reading the numbers: mean z-score and z-score: higher = stronger reporter signal, weaker E2 silencing
Active means: 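Hit if mean z-score reaches 2 and two or more of three replicate z-scores also reach 2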
This is a random part of about 21,000 reagents. Over the whole deposit, 497 (2.4%) got an active call. 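Higher z means weaker E2 silencing; only reporter increases were scored, and knock-downs that hurt cell survival may mask genuine repressor factors.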

no.	gene symbol	PubChem SID	mean z-score	z-score, replicate A	z-score, replicate B	z-score, replicate C	activity call
1	ZFYVE1 (zinc finger FYVE-type containing 1)	SID134317323	0.55	0.82	0.44	0.4	inactive
2	ATF6 (activating transcription factor 6)	SID134314609	0.45	0.39	0.62	0.36	inactive
3	TRIM8 (tripartite motif containing 8)	SID134312199	0.08	0.06	-0.01	0.19	inactive
4	DPY19L4 (dpy-19 like 4)	SID134322760	-0.3	-0.31	-0.42	-0.18	inactive
5	NR1H3 (nuclear receptor subfamily 1 group H member 3)	SID134309864	-0.38	-0.55	-0.2	-0.41	inactive
6	PRKACG (protein kinase cAMP-activated catalytic subunit gamma)	SID56478826	-0.76	-0.91	-0.25	-1.1	inactive
7	LSM10 (LSM10, U7 small nuclear RNA associated)	SID134319097	2.14	2.46	1.89	2.07	active
8	SLC25A48-AS1 (SLC25A48 antisense RNA 1)	SID134327550	-2.1	-2.04	-2.42	-1.84	inactive
9	TMEM63B (transmembrane protein 63B)	SID134326272	-0.96	-0.92	-1.19	-0.76	inactive
10	LOC389858 (retired record)	SID134329136	0.49	0.24	0.47	0.76	inactive
11	ANXA10 (annexin A10)	SID134316639	0.88	0.95	0.62	1.06	inactive
12	ESM1 (endothelial cell specific molecule 1)	SID134316616	-0.31	-0.28	-0.17	-0.48	inactive

Continued (3 carried over from the part before).
no.	gene symbol	PubChem SID	mean z-score	z-score, replicate A	z-score, replicate B	z-score, replicate C	activity call
10	LOC389858 (retired record)	SID134329136	0.49	0.24	0.47	0.76	inactive
11	ANXA10 (annexin A10)	SID134316639	0.88	0.95	0.62	1.06	inactive
12	ESM1 (endothelial cell specific molecule 1)	SID134316616	-0.31	-0.28	-0.17	-0.48	inactive
13	SCN5A (sodium voltage-gated channel alpha subunit 5)	SID134311824	0.57	0.38	0.79	0.55	inactive
14	NIPAL2 (NIPA like domain containing 2)	SID134318590	-0.61	-0.66	-0.6	-0.59	inactive
15	TRIM15 (tripartite motif containing 15)	SID134312224	-0.91	-1.2	-0.65	-0.87	inactive
16	NCOA3 (nuclear receptor coactivator 3)	SID134310067	1.25	1.05	1.43	1.27	inactive
17	ADCK2 (aarF domain containing kinase 2)	SID56478993	-0.07	-0.06	-0.4	0.23	inactive
18	SPINT4 (serine peptidase inhibitor, Kunitz type 4)	SID134329029	-1.01	-1.28	-0.9	-0.86	inactive
19	TRIR (telomerase RNA component interacting RNase)	SID134318439	0.12	0.26	0.2	-0.1	inactive
20	TENM3 (teneurin transmembrane protein 3)	SID134325944	0.18	0.15	0.03	0.37	inactive
21	PARP11 (poly(ADP-ribose) polymerase family member 11)	SID134320124	-0.29	-0.19	-0.33	-0.35	inactive
22	AGA (aspartylglucosaminidase)	SID134310240	0.36	0.26	0.46	0.36	inactive
23	LANCL2 (LanC like glutathione S-transferase 2)	SID134321077	-0.98	-0.8	-1.14	-1.01	inactive
